US8486381B2, “Methods of modulating intestinal fluid balance” (Amgen Inc., priority 2005, dated 2013)

Test system: cyclic AMP
Experiment: Secretagogue-stimulated cyclic AMP accumulation in colonic crypt cell suspensions
Assay type: cell-based
Conditions: 0.1 mM Ca^2+; to control levels

COc1cccc([C@@H](C)NCCCc2ccccc2Cl)c1.Cl [Compound A, N-(3-[2-chlorophenyl]-propyl)-R-α-methyl-3-methoxybenzylamine HCl]
Effect on cholera toxin induced cyclic AMP production: attenuates cyclic AMP in a doze-dependent manner
